Results: ChEMBL document CHEMBL6177980 (J Med Chem, 2025)

Experiments:
[1] = tested on: Severe fever with thrombocytopenia syndrome virus; test: In vivo antiviral activity against SFTSV infected in mouse harboring IFNAR1tm1Agt assessed as animal survival rate at 5 to 100 mg/kg, po qd treated for 7 days relative to control; conditions: dose 5-100 mg/kg, time 7 day
[2] = tested on: Severe fever with thrombocytopenia syndrome virus; test: Antiviral activity against SFTSV infected in mouse harboring IFNAR1tm1Agt assessed as log reduction in viral copy number in lung at 10 mg/kg, po qd treated for 7 days by RT-qPCR analysis; conditions: time 7 day
[3] = tested on: Severe fever with thrombocytopenia syndrome virus; test: Antiviral activity against SFTSV infected in mouse harboring IFNAR1tm1Agt assessed as log reduction in viral copy number in liver at 2.5 mg/kg, po qd treated for 7 days by RT-qPCR analysis; conditions: time 7 day
[4] = tested on: Severe fever with thrombocytopenia syndrome virus; test: In vivo antiviral activity against SFTSV infected in mouse harboring IFNAR1tm1Agt assessed as animal survival rate at 2.5 mg/kg, po qd treated for 7 days relative to control; conditions: time 7 day
[5] = tested on: Severe fever with thrombocytopenia syndrome virus; test: Antiviral activity against SFTSV infected in mouse harboring IFNAR1tm1Agt assessed as log reduction in viral copy number in liver at 10 mg/kg, po qd treated for 7 days by RT-qPCR analysis; conditions: time 7 day
[6] = tested on: Severe fever with thrombocytopenia syndrome virus; test: Antiviral activity against SFTSV infected in mouse harboring IFNAR1tm1Agt assessed as log reduction in viral copy number in spleen at 5 mg/kg, po qd treated for 7 days by RT-qPCR analysis; conditions: time 7 day
[7] = tested on: Severe fever with thrombocytopenia syndrome virus; test: Antiviral activity against SFTSV infected in mouse harboring IFNAR1tm1Agt assessed as log reduction in viral copy number in kidney at 10 mg/kg, po qd treated for 7 days by RT-qPCR analysis; conditions: time 7 day
[8] = tested on: Severe fever with thrombocytopenia syndrome virus; test: Antiviral activity against SFTSV infected in mouse harboring IFNAR1tm1Agt assessed as log reduction in viral copy number in heart at 10 mg/kg, po qd treated for 7 days by RT-qPCR analysis; conditions: time 7 day
[9] = tested on: Severe fever with thrombocytopenia syndrome virus; test: Antiviral activity against SFTSV infected in mouse harboring IFNAR1tm1Agt assessed as log reduction in viral copy number in lung at 5 mg/kg, po qd treated for 7 days by RT-qPCR analysis; conditions: time 7 day
[10] = tested on: Severe fever with thrombocytopenia syndrome virus; test: Antiviral activity against SFTSV infected in mouse harboring IFNAR1tm1Agt assessed as log reduction in viral copy number in heart at 2.5 mg/kg, po qd treated for 7 days by RT-qPCR analysis; conditions: time 7 day
[11] = tested on: Severe fever with thrombocytopenia syndrome virus; test: Antiviral activity against SFTSV infected in mouse harboring IFNAR1tm1Agt assessed as log reduction in viral copy number in lung at 2.5 mg/kg, po qd treated for 7 days by RT-qPCR analysis; conditions: time 7 day
[12] = tested on: Severe fever with thrombocytopenia syndrome virus; test: Antiviral activity against SFTSV infected in mouse harboring IFNAR1tm1Agt assessed as log reduction in viral copy number in liver at 5 mg/kg, po qd treated for 7 days by RT-qPCR analysis; conditions: time 7 day
[13] = Selectivity index, ratio of CC50 for cytotoxicity against human A549 cells to EC50 for antiviral activity against LCMV infected in human A549 cells assessed as reduction in viral replication
[14] = tested on: Severe fever with thrombocytopenia syndrome virus; test: Antiviral activity against SFTSV infected in mouse harboring IFNAR1tm1Agt assessed as log reduction in viral copy number in heart at 5 mg/kg, po qd treated for 7 days by RT-qPCR analysis; conditions: time 7 day
[15] = tested on: Severe fever with thrombocytopenia syndrome virus; test: Antiviral activity against SFTSV infected in mouse harboring IFNAR1tm1Agt assessed as log reduction in viral copy number in kidney at 5 mg/kg, po qd treated for 7 days by RT-qPCR analysis; conditions: time 7 day
[16] = tested on: Severe fever with thrombocytopenia syndrome virus; test: Antiviral activity against SFTSV infected in mouse harboring IFNAR1tm1Agt assessed as log reduction in viral copy number in kidney at 2.5 mg/kg, po qd treated for 7 days by RT-qPCR analysis; conditions: time 7 day
[17] = tested on: Severe fever with thrombocytopenia syndrome virus; test: Antiviral activity against SFTSV infected in mouse harboring IFNAR1tm1Agt assessed as log reduction in viral copy number in spleen at 2.5 mg/kg, po qd treated for 7 days by RT-qPCR analysis; conditions: time 7 day
[18] = tested on: Severe fever with thrombocytopenia syndrome virus; test: Antiviral activity against SFTSV infected in mouse harboring IFNAR1tm1Agt assessed as log reduction in viral copy number in spleen at 10 mg/kg, po qd treated for 7 days by RT-qPCR analysis; conditions: time 7 day

**Q.** What does the source list for `CC(C)C(=O)OC[C@@]1(F)O[C@@H](n2ccc(=O)n(COC(=O)c3cccnc3)c2=O)[C@H](OC(=O)C(C)C)[C@@H]1OC(=O)C(C)C`?
**A.** Survival [1]: 100%; log(activity) [2]: 3.66; log(activity) [3]: 1.92; Survival [4]: 16.7%; log(activity) [5]: 4.8; log(activity) [6]: 1.85; log(activity) [7]: 3.11; log(activity) [8]: 3.29; log(activity) [9]: 2.4; log(activity) [10]: 1.41; log(activity) [11]: 1.33; log(activity) [12]: 3.29; Ratio CC50/EC50 [13]: > 667; log(activity) [14]: 2.18; log(activity) [15]: 2.3; log(activity) [16]: 1.45; log(activity) [17]: 0.94; log(activity) [18]: 2.2
